We go through twelve molecules from patent US20160304570A1, “Potent and selective inhibitors of nav1.3 and nav1.7” (published 2016).

A value given as a limit tells only on which side of the number the result lay.

The target of one test is human Nav1.7 voltage-gated sodium channel (human), Q15858. Briefly: cell-based or functional assay.
DCLGRMRKCIPDNDKCCRPNLVCSRTHKWCKYVF (modifications not checked) [[Arg5]GpTx-1(1-34)]: the IWQ Use Nav1.7 (µM): IC50 of peak inward current, IonWorks Quattro stood at 3.63 µM.

Molecule DCLGHMRKCIPDNDKCCRPNLVCSRTHKWCKYVF (modifications not checked) [[His5]GpTx-1(1-34)] had an IWQ Use Nav1.7 (µM): IC50 of peak inward current, IonWorks Quattro of 4.74 µM.

As to DCLGWMRKCIPDNDKCCRPNLVCSRTHKWCKYVF (modifications not checked) [[Trp5]GpTx-1(1-34)], the IWQ Use Nav1.7 (µM): IC50 of peak inward current, IonWorks Quattro amounted to 0.15 µM.

DCLGPMRKCIPDNDKCCRPNLVCSRTHKWCKYVF (modifications not checked) [[Pro5]GpTx-1(1-34)] came in with an IWQ Use Nav1.7 (µM): IC50 of peak inward current, IonWorks Quattro of 1.17 µM.

As for DCLGFMRKCIPDNDKCCEPNLVCSRTHKWCKYVF (modifications not checked) [[Glu18]GpTx-1(1-34)], the Nav1.7 Use IC50 (µM), PatchXpress electrophysiology turned out to be 0.018 µM.

For DCLGFMRKCIWDNDKCCRPNLVCSRTHKWCKYVF (modifications not checked) [[Trp11]GpTx-1(1-34)], the IWQ Use Nav1.7 (µM); IC50 of peak inward current, IonWorks Quattro amounted to 0.07 µM.

The molecule DCLGTMRKCIPDNDKCCRPNLVCSRTHKWCKYVF (modifications not checked) [[Thr5]GpTx-1(1-34)] came in with an IWQ Use Nav1.7 (µM): IC50 of peak inward current, IonWorks Quattro of 1.22 µM.

The molecule DCLGFMRKCIPDNDKCCWPNLVCSRTHKWCKYVF (modifications not checked) [[Trp18]GpTx-1(1-34)] gave a Nav1.7 Use IC50 (µM), PatchXpress electrophysiology of 0.024 µM.

Regarding DCLGFMRKCIPENDKCCRPNLVCSRTHKWCKYVF (modifications not checked) [[Glu12]GpTx-1(1-34)], the IWQ Use Nav1.7 (µM); IC50 of peak inward current, IonWorks Quattro stood at 0.26 µM.

In turn, DCLGFMRKCIADNDKCCRPNLVCSRTHKWCKYVF (modifications not checked) [[Ala11]GpTx-1(1-34)] showed an IWQ Use Nav1.7 (µM); IC50 of peak inward current, IonWorks Quattro of 0.21 µM.

As to DCLGAMRKCIPDNDKCCRPNLVCSRTHKWCKYWF (modifications not checked) [[Ala5; Trp33]GpTx-1(1-34)], the Nav1.7 Use IC50 (µM), PatchXpress electrophysiology stood at 0.034 µM.

DCLGYMRKCIPDNDKCCRPNLVCSRTHKWCKYVF (modifications not checked) [[Tyr5]GpTx-1(1-34)] had an IWQ Use Nav1.7 (µM): IC50 of peak inward current, IonWorks Quattro of 1.43 µM.

In a further test the target is human Nav1.5 voltage-gated sodium channel (human), Q14524. Briefly: cell-based or functional assay.
The molecule DCLGRMRKCIPDNDKCCRPNLVCSRTHKWCKYVF (modifications not checked) [[Arg5]GpTx-1(1-34)] registered an IWQ Use Nav1.5 (µM): IC50 of peak inward current, IonWorks Quattro of 12.6 µM.

Consider DCLGHMRKCIPDNDKCCRPNLVCSRTHKWCKYVF (modifications not checked) [[His5]GpTx-1(1-34)], for which the IWQ Use Nav1.5 (µM): IC50 of peak inward current, IonWorks Quattro came to 6.62 µM.

Molecule DCLGWMRKCIPDNDKCCRPNLVCSRTHKWCKYVF (modifications not checked) [[Trp5]GpTx-1(1-34)] gave an IWQ Use Nav1.5 (µM): IC50 of peak inward current, IonWorks Quattro of 9.32 µM.

As to DCLGPMRKCIPDNDKCCRPNLVCSRTHKWCKYVF (modifications not checked) [[Pro5]GpTx-1(1-34)], the IWQ Use Nav1.5 (µM): IC50 of peak inward current, IonWorks Quattro is 6.61 µM.

With DCLGFMRKCIPDNDKCCEPNLVCSRTHKWCKYVF (modifications not checked) [[Glu18]GpTx-1(1-34)], the Nav1.5 Use IC50 (µM), PatchXpress electrophysiology was above 10 µM.

The molecule DCLGFMRKCIWDNDKCCRPNLVCSRTHKWCKYVF (modifications not checked) [[Trp11]GpTx-1(1-34)] had an IWQ Use Nav1.5 (µM); IC50 of peak inward current, IonWorks Quattro of 9.5 µM.

As for DCLGTMRKCIPDNDKCCRPNLVCSRTHKWCKYVF (modifications not checked) [[Thr5]GpTx-1(1-34)], the IWQ Use Nav1.5 (µM): IC50 of peak inward current, IonWorks Quattro is 15.2 µM.

DCLGFMRKCIPDNDKCCWPNLVCSRTHKWCKYVF (modifications not checked) [[Trp18]GpTx-1(1-34)] registered a Nav1.5 Use IC50 (µM), PatchXpress electrophysiology above 10 µM.

In turn, DCLGFMRKCIPENDKCCRPNLVCSRTHKWCKYVF (modifications not checked) [[Glu12]GpTx-1(1-34)] returned an IWQ Use Nav1.5 (µM); IC50 of peak inward current, IonWorks Quattro of 6.45 µM.

Take DCLGFMRKCIADNDKCCRPNLVCSRTHKWCKYVF (modifications not checked) [[Ala11]GpTx-1(1-34)]: the IWQ Use Nav1.5 (µM); IC50 of peak inward current, IonWorks Quattro is 16.1 µM.

Turning to DCLGAMRKCIPDNDKCCRPNLVCSRTHKWCKYWF (modifications not checked) [[Ala5; Trp33]GpTx-1(1-34)], the Nav1.5 Use IC50 (µM), PatchXpress electrophysiology is above 10 µM.

DCLGYMRKCIPDNDKCCRPNLVCSRTHKWCKYVF (modifications not checked) [[Tyr5]GpTx-1(1-34)] returned an IWQ Use Nav1.5 (µM): IC50 of peak inward current, IonWorks Quattro of 15.6 µM.

The target of the next test is human Nav1.3 voltage-gated sodium channel (human), Q9NY46. Briefly: cell-based or functional assay.
DCLGRMRKCIPDNDKCCRPNLVCSRTHKWCKYVF (modifications not checked) [[Arg5]GpTx-1(1-34)] gave an IWQ Use Nav1.3 (µM): IC50 of peak inward current, IonWorks Quattro of 4.09 µM.

In the case of DCLGHMRKCIPDNDKCCRPNLVCSRTHKWCKYVF (modifications not checked) [[His5]GpTx-1(1-34)], the IWQ Use Nav1.3 (µM): IC50 of peak inward current, IonWorks Quattro was 8.37 µM.

The molecule DCLGWMRKCIPDNDKCCRPNLVCSRTHKWCKYVF (modifications not checked) [[Trp5]GpTx-1(1-34)] came in with an IWQ Use Nav1.3 (µM): IC50 of peak inward current, IonWorks Quattro of 0.11 µM.

Molecule DCLGPMRKCIPDNDKCCRPNLVCSRTHKWCKYVF (modifications not checked) [[Pro5]GpTx-1(1-34)] came in with an IWQ Use Nav1.3 (µM): IC50 of peak inward current, IonWorks Quattro of 1.73 µM.

For the molecule DCLGFMRKCIPDNDKCCEPNLVCSRTHKWCKYVF (modifications not checked) [[Glu18]GpTx-1(1-34)], the Nav1.3 Use IC50 (µM), PatchXpress electrophysiology worked out at 0.098 µM.

Consider DCLGFMRKCIWDNDKCCRPNLVCSRTHKWCKYVF (modifications not checked) [[Trp11]GpTx-1(1-34)], for which the IWQ Use Nav1.3 (µM); IC50 of peak inward current, IonWorks Quattro amounted to 0.04 µM.

The molecule DCLGTMRKCIPDNDKCCRPNLVCSRTHKWCKYVF (modifications not checked) [[Thr5]GpTx-1(1-34)] registered an IWQ Use Nav1.3 (µM): IC50 of peak inward current, IonWorks Quattro of 2.19 µM.

The molecule DCLGFMRKCIPDNDKCCWPNLVCSRTHKWCKYVF (modifications not checked) [[Trp18]GpTx-1(1-34)] had a Nav1.3 Use IC50 (µM), PatchXpress electrophysiology of 0.042 µM.

As to DCLGFMRKCIPENDKCCRPNLVCSRTHKWCKYVF (modifications not checked) [[Glu12]GpTx-1(1-34)], the IWQ Use Nav1.3 (µM); IC50 of peak inward current, IonWorks Quattro turned out to be 0.19 µM.

In turn, DCLGFMRKCIADNDKCCRPNLVCSRTHKWCKYVF (modifications not checked) [[Ala11]GpTx-1(1-34)] showed an IWQ Use Nav1.3 (µM); IC50 of peak inward current, IonWorks Quattro of 0.18 µM.

The molecule DCLGAMRKCIPDNDKCCRPNLVCSRTHKWCKYWF (modifications not checked) [[Ala5; Trp33]GpTx-1(1-34)] had a Nav1.3 Use IC50 (µM), PatchXpress electrophysiology of 0.569 µM.

DCLGYMRKCIPDNDKCCRPNLVCSRTHKWCKYVF (modifications not checked) [[Tyr5]GpTx-1(1-34)] had an IWQ Use Nav1.3 (µM): IC50 of peak inward current, IonWorks Quattro of 1.64 µM.
